A mixed list of measured activities; the numbers were collected in NIAID ChemDB.

All rows: whole-cell or culture tests

ECn: concentration that inhibits the pathogen or its effect by n%. a–b is a range or a potency band. Conditions beyond the fields shown may differ between rows. MIC50, MIC90 and the like: level of inhibition, or share of isolates inhibited. An empty or dashed field is not shown. Percent inhibition refers to the dose given; in toxicity tests it is the harm to the cells.

compound | agent | strain or isolate | cells | method | read-out | dose | result
CCOC(=O)c1ccc(OCCC2CCN(c3ccc(C)nn3)CC2)cc1 | Rhinovirus | 56822 (ICAM-1 receptor group 42) | KB | neutral red | EC50 |  | 0.041 µM
O=c1[nH]c(=O)n([C@H]2C[C@H](O)[C@@H](CO)O2)cc1I | Varicella zoster virus | HIRAI | HELF | plaque count | inhibition | 10 µg/mL | 100%
Oc1ccccc1N=Cc1ccccc1 | Cryptococcus neoformans | WP |  |  | MIC99 |  | 8 µg/mL
O=C(O)c1cc(S(=O)(=O)[O-])ccc1O | Rhinovirus |  | Human amnion AV3 cells | cytopathic effect | inhibition | 5 µg/mL | 0%
C/C=C\[C@@H]1C[C@H](C(=O)O)N[C@H]1[C@@H](NC(C)=O)[C@](C)(CCC)OC | Influenza A virus | H1N1 isolate C23D | MDCK | plaque count | EC50 |  | 0.01 µg/mL
O=C(NCc1ccccc1)c1c2n(c(=O)n1-c1ccc(-n3cc(F)cn3)cc1)CCN(C(=O)c1ccc(Br)c(Cl)c1)C2 | Hepatitis B virus |  | HepG2.117 | PCR | EC50 |  | 0.1–0.5 µM
Cc1cn([C@@H]2O[C@H](CO)[C@@H](O)[C@@H]2O)c(=O)[nH]c1=O | Varicella zoster virus | Ohtomo | HELF | plaque count | inhibition | 0.1 µg/mL | 100%
Oc1ccccc1N=Cc1ccc(F)cc1 | Cryptococcus neoformans | C-3-1 |  | broth dilution | MIC |  | 4 µg/mL
CCC(CC)O[C@@H]1C=C(C(=O)O)C[C@H](N)[C@H]1NC(C)=O | Influenza A virus | Influenza A/Virginia/2/88R (H3N2) | MDCK | visual reading | EC50 |  | 0.01 µM
C[C@H](NC(=O)c1c2n(c(=O)n1-c1ccc(OC3CC3)cc1)CCN(C(=O)c1ccc(Br)c(Cl)c1)C2)c1ccc(OC(C)(C)C(N)=O)cc1F | Hepatitis B virus |  | HepG2.117 | PCR | EC50 |  | 0.1–0.5 µM
Cc1cn([C@@H]2O[C@H](CO)[C@@H](O)[C@@H]2F)c(=O)nc1N | Varicella zoster virus | Kawaguchi | HELF | plaque count | inhibition | 0.01 µg/mL | 86%
O=C1C(c2[nH]c3ccc(S(=O)(=O)O)cc3c2O)=Nc2ccc(S(=O)(=O)O)cc21 | Adenovirus | TYPE 3 | Human embryonic lung cells | cytopathic effect | inhibition | 10 µg/mL | 0%
CCOC(=O)c1c(C)nc(OCCCNc2ccnc3cc(Cl)ccc23)nc1-c1ccccc1 | Cryptococcus neoformans | WP |  |  | MIC99 |  | 8 µg/mL
Nc1nc2c(ncn2C=C2CC2CO)c(=O)[nH]1 | Human cytomegalovirus | VR6189 (ganciclovir-susceptible) |  | plaque count | EC90 |  | 4.9 µM
O=c1[nH]c(=O)n([C@@H]2O[C@H](CO)[C@@H](O)[C@@H]2O)cc1/C=C/Br | Varicella zoster virus | KANNO | HELF | plaque count | inhibition | 0.0001 µg/mL | 69%
O=S(=O)(O)c1cc(O)c2c(O)cc(S(=O)(=O)O)cc2c1 | Herpes simplex virus |  | Human conjunctiva cells | cytopathic effect | inhibition | 10 µg/mL | 10%
Nc1nc2c(ncn2COCCO)c(=O)[nH]1 | Varicella zoster virus | Asahikawa | HELF | plaque count | inhibition | 1 µg/mL | 28%
Cc1cc(CCCOc2c(C)cc(-c3noc(C(F)(F)F)n3)cc2C)on1 | Rhinovirus | Isolate 33 | OHIO HELA-I | cytopathic effect / visual reading | EC50 |  | 0.02 µg/mL
Oc1ccc(O)c(C=Nc2ccccc2O)c1 | Cryptococcus neoformans | 96806 |  |  | MIC99 |  | 11.3 µg/mL
O=C(NCc1ccc(Cl)cc1)c1c[nH]c2c(F)cccc2c1=O | Varicella zoster virus | DIE |  | plaque count | EC50 |  | 0.6 µM
O=S(=O)(O)c1ccc2cc(O)c(S(=O)(=O)O)cc2c1 | Herpes simplex virus |  | Human conjunctiva cells | cytopathic effect | inhibition | 50 µg/mL | 0%
COc1ccc([C@H](C)NC(=O)c2c3n(c(=O)n2-c2ccc(-n4cccn4)cc2)CCN(C(=O)c2ccc(Br)c(Cl)c2)C3)cc1 | Hepatitis B virus |  | HepG2.117 | PCR | EC50 |  | 0.1–0.5 µM
O=S(=O)([O-])c1cc(NS(=O)(=O)c2ccccc2)c2c(S(=O)(=O)[O-])cc(S(=O)(=O)[O-])cc2c1 | Adenovirus | TYPE 3 | Human amnion AV3 cells | cytopathic effect | inhibition | 10 µg/mL | 0%
C=CCc1ccc(OC)c(OC)c1 | Candida glabrata | 2965 |  | turbidity | MIC90 |  | 340 µg/mL
CCOC(=O)c1c(C)nc(NCCCNc2ccnc3cc(Cl)ccc23)nc1-c1ccccc1 | Cryptococcus neoformans | F-10 |  |  | MIC99 |  | 4 µg/mL
O=S(=O)(O)c1ccc(N=Nc2c(O)ccc3cc(S(=O)(=O)O)ccc23)cc1 | Rhinovirus |  | Human embryonic lung cells | cytopathic effect | inhibition | 5 µg/mL | 20%
O=C(NCc1ccc(OC2COC2)cc1F)c1c2n(c(=O)n1-c1ccc(OCC(F)(F)F)cc1)CCN(C(=O)c1ccc(Br)c(Cl)c1)C2 | Hepatitis B virus |  | HepG2.117 | PCR | EC50 |  | 0.1–0.5 µM
O=[N+]([O-])c1ccc(C=Nc2ccccc2O)cc1 | Cryptococcus gattii | ATCC 32608 |  |  | MIC99 |  | 16 µg/mL